Record: PubChem BioAssay AID1259414 (Drosophila RNAi Screening Center, 2018)
In all, the deposit lists about 24,000 reagents; below is a random part of those with a known target gene and a result. In the full data, about 1,210 (5%) are marked active. 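Inactive calls also include excluded dsRNAs with several or no targets, genes unexpressed in JW18, and well A1, regardless of score.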 Unmarked entries are inactive. No sequences are given here.

Aim: 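Host factors increasing or decreasing Wolbachia levels in cultured fly cells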 (primary screen)
Cell system: Drosophila JW18 cells infected with Wolbachia
Knock-down reagent: long dsRNA against Drosophila genes, 0.25 µg dsRNA per well of a 384-well plate
Timing: 5 days
Treatment: cells persistently infected with Wolbachia before knock-down; no added drug
Read-out: 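Automated imaging of bacterial rRNA staining divided by host cell count, reported as plate-normalised robust z-score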
Direction: Wolbachia per cell robust z: higher = more Wolbachia per host cell than the plate typical
Active means: 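Active if absolute robust z reaches 1.5 in two or more of three replicates, leaving out multi- or no-target dsRNAs, genes unexpressed in JW18 and A1 wells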

The first 2 records, ahead of the listing:
CG1698 [DRSC06640] — Wolbachia per cell robust z, rep 1 = -0.713; Wolbachia per cell robust z, rep 2 = 0.763; Wolbachia per cell robust z, rep 3 = 0.286
CG1698 [DRSC24314] — Wolbachia per cell robust z, rep 1 = -0.266; Wolbachia per cell robust z, rep 2 = -0.109; Wolbachia per cell robust z, rep 3 = -0.423

The listing, repeating the preview:
CG1698 [DRSC06640] — Wolbachia per cell robust z, rep 1 = -0.713; Wolbachia per cell robust z, rep 2 = 0.763; Wolbachia per cell robust z, rep 3 = 0.286
CG1698 [DRSC24314] — Wolbachia per cell robust z, rep 1 = -0.266; Wolbachia per cell robust z, rep 2 = -0.109; Wolbachia per cell robust z, rep 3 = -0.423
Ccdc114 (Coiled-coil domain containing protein 114) [DRSC15025] — Wolbachia per cell robust z, rep 1 = -0.159; Wolbachia per cell robust z, rep 2 = 1.22; Wolbachia per cell robust z, rep 3 = 0.853
TwdlV (TweedleV) [DRSC24972] — Wolbachia per cell robust z, rep 1 = -0.444; Wolbachia per cell robust z, rep 2 = -0.296; Wolbachia per cell robust z, rep 3 = -0.999
CG2608 [DRSC02709] — Wolbachia per cell robust z, rep 1 = 0.735; Wolbachia per cell robust z, rep 2 = -6.04; Wolbachia per cell robust z, rep 3 = -0.0852
Hmbs (Hydroxymethylbilane synthase) [DRSC08632] — Wolbachia per cell robust z, rep 1 = 0.294; Wolbachia per cell robust z, rep 2 = -0.388; Wolbachia per cell robust z, rep 3 = -1.53
CG3513 [DRSC00608] — Wolbachia per cell robust z, rep 1 = -5.44; Wolbachia per cell robust z, rep 2 = 0.699; Wolbachia per cell robust z, rep 3 = -1.57
Jon99Fi (Jonah 99Fi) [DRSC26496] — Wolbachia per cell robust z, rep 1 = 0.883; Wolbachia per cell robust z, rep 2 = 0.707; Wolbachia per cell robust z, rep 3 = 0.828
CG12964 [DRSC23210] — Wolbachia per cell robust z, rep 1 = 1.14; Wolbachia per cell robust z, rep 2 = 0.821; Wolbachia per cell robust z, rep 3 = -0.315
CG12964 [DRSC29427] — Wolbachia per cell robust z, rep 1 = -0.914; Wolbachia per cell robust z, rep 2 = -0.965; Wolbachia per cell robust z, rep 3 = -5.13
CG32806 [DRSC21699] — Wolbachia per cell robust z, rep 1 = 0.63; Wolbachia per cell robust z, rep 2 = 1.14; Wolbachia per cell robust z, rep 3 = 0.683
CG32806 [DRSC28307] — Wolbachia per cell robust z, rep 1 = 0.357; Wolbachia per cell robust z, rep 2 = -1.11; Wolbachia per cell robust z, rep 3 = -0.586
CG32806 [DRSC39095] — Wolbachia per cell robust z, rep 1 = -0.377; Wolbachia per cell robust z, rep 2 = -0.428; Wolbachia per cell robust z, rep 3 = 0.098
